B1: 310-12D03 Fab (Fab, V domains shown)
VH: QVQLQESGPGLVKPSETLSLTCTVSGDSVSSGDYFWSWIRQPPGKGLEWIGYIFYGGNTKYNPSLKSRVAISVDTSKDQFSLKLTSVTAADTAVYYCATSYITGIQGVDYWGQGTLITVSS
VL: EIVLTQSPGTLSLSPGERATLSCRASQSVSSSFLAWYQQKPGQAPKLLIYGASSRATGIPDRFSGSGSGTDFTLTISRLEPEDFAVYYCQQYGYSLTWTFGQGTKVEIK
B2: 326-289.74 Fab (Fab, V domains shown)
VH: QVQLVQSGAEVKKPGSSVKVSCKASGGTFSIYTFTWVRQAPGHGLEWMGGILPISGSAKYAQKFLGRVTITADESTSTVYMELSSLRSEDTAIYYCARDPYSNYFYGLDVWGQGTTVTVSS
VL: EIVLTQSPVTLSLSPGERATLSCRASQSVSRFLAWYQQKPGQAPRLLFYDASTRATGIPARFSGTGSGTDFTLTISGLEPEDFAVYYCQQRSNWPPEYSFGQGTKLEIK
B3: 326-366.26 Fab (Fab, V domains shown)
VH: QMQLQESGPGLVKPSGTLSLTCAVSGGSISNSHWWSWVRQSPGKGLEWIGEIYHSGSTYYNPSLKSRLTISVDKSKNQFSLKLTSVTAADTAVYFCARGLGWEQGGYRAFDMWGQGTTVTVSS
VL: EIVMTQSPATLSVSPGERVTLSCRASQSVGSSLAWYQQKPGQAPRLLIYAASTRATGIPARFSGSGSGTEFTLTISSLQSEDFAVYYCQQHYNWPPLTFGGGTKVEIK

A word on the Kd: it is a measure of binding affinity in units of concentration. A lower Kd goes with a tighter complex. Usually koff stands for the rate constant with which the complex falls apart. High values mean a short-lived complex, low ones a long-lived complex. Broadly, the kon is a measure of how fast the partners come together. The low end stands for slow association, the high end for fast association.

The assay addresses H5 A/Texas/37/2024 haemagglutinin ectodomain, soluble trimer (influenza A virus H5N1 A/Texas/37/2024). The following applies: both partners purified.
As to B1, binding was characterised by a dissociation constant (Kd) of 5.03 nM, the koff came to 0.000285 s⁻¹ and the kon is 56600 M⁻¹ s⁻¹.
Molecule B2 displayed a Kd of 0.28 nM, a koff of 1.21e-05 s⁻¹ and a kon of 43000 M⁻¹ s⁻¹.
In the case of B3, the Kd was 0.193 nM, the koff amounted to 2.84e-05 s⁻¹ and the on-rate (kon) was found to be 147000 M⁻¹ s⁻¹.

The record behind these values is PMC12578633, “Cross-neutralizing and potent human monoclonal antibodies against historical and emerging H5Nx influenza viruses” (Nature Microbiology, 2025).
